Anti-infective test results gathered from many reports (values: NIAID ChemDB through PubChem).

All rows: tests in culture; species: HIV-1; read-out: EC50

Rows are shuffled and stem from different studies.

| compound | strain | mutations | setting | cells | method | result |
|---|---|---|---|---|---|---|
| Clc1ccc(-c2csc(N/N=C/c3ccco3)n2)cc1 | IIIB |  |  | MT-4 | MTT | >27.9 µM |
| Nc1nccc2c1ncn2[C@@H]1C[C@H](O)[C@@H](O)[C@H]1O | A012 |  |  | PBMC | p24 | 3.48 µM |
| O=C(Nc1cc(NC(=O)c2ccccc2)cc(-c2nc3ccccc3c(=O)o2)c1)c1ccccc1 | IIIB |  |  | MT-2 | p24 | >10 µM |
| Oc1ccccc1/C=N/Nc1nc(-c2ccc(Cl)cc2)cs1 | IIIB |  |  | MT-4 | MTT | >102 µM |
| C#C[C@]1(CO)O[C@@H](n2cnc3c(N)nc(F)nc32)C[C@@H]1OC(=O)OCCCCCCCCCCCCCCCCCCC | NL4-3 | gp160 M184V |  | U373-CD4-CXCR4 | luminescence | 19.36 µM |
| CNC(=O)NC[C@H]1O[C@@H](n2cnc3c(NC(=O)Nc4ccccc4)ncnc32)[C@H](O[Si](C)(C)C(C)(C)C)[C@@H]1CC(=O)N(C)OC | LAI |  |  | MT-2 | cytopathic effect / neutral red | >17 µM |
| CCCN(C)Cc1ccc2c(c1)C[C@H](CN=C(N)N)[C@H]2NC(=O)C(=O)Nc1ccc(Cl)c(F)c1 | JR-FL |  |  | Cf2Th-CD4/CCR5 | luminescence | 8 µM |
| C/C(=N\Nc1nc(-c2ccc(Cl)cc2)cs1)c1ccc(-n2ccnc2)cc1 | IIIB |  |  | MT-4 | MTT | >92.25 µM |
| COC(=O)C[C@H](O)[C@H](CC(C)C)NC(=O)[C@H](C)NC(=O)C[C@H](O)[C@H](CC(C)C)NC(=O)[C@@H](NC(=O)[C@H](Cc1ccc(O)cc1)NC(=O)OCc1ccccc1)C(C)C |  |  |  | MT-4 | syncytia | 20 µM |
| Cc1ccc(C(=O)Nc2ccc(S(=O)(=O)O)c3cc(S(=O)(=O)O)cc(S(=O)(=O)O)c23)cc1NC(=O)c1cccc(NC(=O)Nc2cccc(C(=O)Nc3cc(C(=O)Nc4ccc(S(=O)(=O)O)c5cc(S(=O)(=O)O)cc(S(=O)(=O)O)c45)ccc3C)c2)c1 |  |  |  | MT-4 | cytopathic effect | 32 µM |
| Clc1ccc(-c2csc(N/N=C/c3ccccn3)n2)cc1 | IIIB |  |  | MT-4 | MTT | >2.19 µM |
| CCCCn1c(C)c(C(=O)OC)c(C(=O)OC)c1Cc1ccccc1 | IIIB |  |  | PBL | p24 / ELISA | >1 µM |
| COc1ccc(CCNC(=O)c2ccc(C(=O)NCCc3ccc(OC)c(OC)c3)nc2)cc1OC | IIIB |  |  | MT-2 | p24 | >10 µM |
| CCc1ccc(-c2cn([C@H]3C[C@H]4C(=O)N[C@@H](Cc5c[nH]c6ccccc56)C(=O)N[C@H](C(N)=O)CCCCNC(=O)C[C@H](N)C(=O)N[C@@H](CC(N)=O)C(=O)N[C@@H]([C@@H](C)CC)C(=O)N4C3)nn2)cc1 | BaL |  |  | HOS-CD4-CCR5 | luminescence | 1.9 µM |
| COC(=O)c1cn2c(c1C(=O)OC)Cc1ccccc1C2 | IIIB |  |  | PBL | p24 / ELISA | >10 µM |
| Brc1ccc(-c2csc(N/N=C/c3cccnc3)n2)cc1 | IIIB |  |  | MT-4 | MTT | >23.39 µM |
| C#C[C@]1(CO)O[C@@H](n2cnc3c(NC(=O)CCCCCCCCCCCCC)nc(F)nc32)C[C@@H]1O | NL4-3 | gp160 M184V |  | U373-CD4-CXCR4 | luminescence | 0.0074 µM |
| CCOC(=O)c1c(C(=O)c2ccccc2F)c(C)n(C)c1C | IIIB |  |  | PBL | p24 / ELISA | >10 µM |
| CC(S)C(=O)NCC(=O)O |  |  |  | H9 | syncytia | 200 µg/mL |
| COCC[C@@]1(C)C(=O)c2c(O)c(=O)c(C(=O)NCc3ccc(F)cc3F)cn2C[C@@H]1OC | NL4-3 |  | 0% human serum | MT-4 | GFP | 0.002 µM |
| COC(=O)c1cn2c(ccc3ccccc32)c1C(=O)OC | IIIB |  |  | PBL | p24 / ELISA | >10 µM |
| CC(C)c1c(Cc2ccccc2)nc(SCC2OCCO2)[nH]c1=O | IIIB |  |  | MT-4 | cytopathic effect / MTT | >100 µM |
| C#C[C@]1(COC(=O)OCC)O[C@@H](n2cnc3c(N)nc(F)nc32)C[C@@H]1O | NL4-3 | gp160 M184V |  | U373-CD4-CXCR4 | luminescence | 0.1123 µM |
| CC(C)C1=C2[C@H]3CC[C@@H]4[C@@]5(C)CC[C@H](OC(=O)[C@H]6C[C@@H](C(=O)O)C6(C)C)C(C)(C)[C@@H]5CC[C@@]4(C)[C@]3(C)CC[C@@]2([C@@H](O)CNCC(F)(F)NC(=O)c2ccc(Cl)cc2)CC1=O | 92HT599 |  |  | MT-2 | p24 / ELISA | <1 µM |
| Cc1cc(S(N)(=O)=O)ccc1NC(=O)COc1ccccc1C(=O)c1cc(Cl)cc(C#N)c1 |  | RT-K103N |  | HeLa MAGI + HeLa | β-galactosidase | ~0.001 µM |
| Brc1ccc(-c2csc(N/N=C/c3ccncc3)n2)cc1 | IIIB |  |  | MT-4 | MTT | >125 µM |
| CC1(C)CCn2cc(C(=O)NCc3ccc(F)cc3F)c(=O)c(O)c2C1=O | NL4-3 |  | 0% human serum | MT-4 | GFP | 0.0055 µM |
| CC(C)C1=C2[C@H]3CC[C@@H]4[C@@]5(C)CC[C@H](OC(=O)[C@H]6C[C@@H](C(=O)O)C6(C)C)C(C)(C)[C@@H]5CC[C@@]4(C)[C@]3(C)CC[C@@]2(CC(=O)NCC(C)(CCN)NC(=O)c2ccc(Cl)cc2)CC1=O | 92HT599 |  |  | MT-2 | p24 / ELISA | <1 µM |
| C/C(=N\Nc1nc(-c2ccc(Br)cc2)cs1)c1ccc(Cl)c(Cl)c1 | IIIB |  |  | MT-4 | MTT | >13.05 µM |
| COC(=O)C[C@H](O)C(CC(C)C)NC(=O)[C@H](C)NC(=O)CC(O)C(Cc1ccccc1)NC(=O)[C@@H](NC(=O)[C@H](Cc1ccc(O)cc1)NC(=O)OCc1ccccc1)C(C)C |  |  |  | MT-4 | syncytia | 40 µM |
| C(=N\Nc1nc(-c2ccccc2)cs1)/c1ccco1 | IIIB |  |  | MT-4 | MTT | >11.3 µM |
| CC(C)C1=C2[C@H]3CC[C@@H]4[C@@]5(C)CC[C@H](OC(=O)[C@H]6C[C@@H](C(=O)O)C6(C)C)C(C)(C)[C@@H]5CC[C@@]4(C)[C@]3(C)CC[C@@]2(CC(=O)NCC(C)(C)NC(=O)C2CCNCC2)CC1=O | 92HT599 |  |  | MT-2 | p24 / ELISA | <1 µM |
| CCn1c(C)c(C(=O)OC)c(C(=O)OC)c1Cc1ccccc1 | IIIB |  |  | PBL | p24 / ELISA | 2.3 µM |
| CN(CC(=O)O)Cc1ccc2c(c1)C[C@H](CN=C(N)N)[C@H]2NC(=O)C(=O)Nc1ccc(Cl)c(F)c1 | AD8 |  |  | Cf2Th-CD4/CCR5 | luminescence | 15.3 µM |
| CC(C)c1c(Cc2ccccc2)n2c(nc1=O)SCC2OCCO | IIIB |  |  | MT-4 | cytopathic effect / MTT | >100 µM |
| Nc1nccc2c1ncn2[C@@H]1C[C@H](CO)[C@@H](O)[C@H]1O | A012 |  |  | PBMC | p24 | 0.14 µM |
| C#C[C@]1(COCOC(=O)OCCCCCCCCCCCCCCCC)O[C@@H](n2cnc3c(N)nc(F)nc32)C[C@@H]1O | NL4-3 | gp160 M184V |  | U373-CD4-CXCR4 | luminescence | 0.019 µM |
| O=C(CN1CCCC1)Nc1ccc(Cc2ccc(NC(=O)CN3CCCC3)cc2)cc1 | IIIB |  |  | C8166 | MTT | 17.05 µg/mL |
| C#C[C@]1(COC(=O)OCCCCCCCCCCCCCCCCCC)O[C@@H](n2cnc3c(N)nc(F)nc32)C[C@@H]1O | NL4-3 | gp160 M184V |  | U373-CD4-CXCR4 | luminescence | 0.0411 µM |
| Nc1ncnc2c1ncn2[C@@H]1C=C(CO)[C@@H](O)[C@H]1O | A012 |  |  | PBMC | p24 | 0.011 µM |
| O=C1C=CC(=C(c2ccc(O)cc2)c2ccc(O)cc2)C=C1 |  |  |  | HuT-78 | cytopathic effect | >2.3 µM |
| CC(C)CC(NC(=O)[C@@H](NC(=O)[C@H](Cc1ccc(O)cc1)NC(=O)OCc1ccccc1)C(C)C)[C@@H](O)CC(=O)N[C@@H](C)C(=O)N[C@H](CO)CC(C)C |  |  |  | MT-4 | syncytia | 40 µM |
| Cc1nc2ccc(C(=O)NC(C)(C)CNCC[C@@]34CC[C@]5(C)[C@H](CC[C@@H]6[C@@]7(C)CC[C@H](OC(=O)[C@H]8C[C@@H](C(=O)O)C8(C)C)C(C)(C)[C@@H]7CC[C@]65C)C3=C(C(C)C)C(=O)C4)cc2[nH]1 | 92HT599 |  |  | MT-2 | p24 / ELISA | <1 µM |
| C#C[C@]1(CO)O[C@@H](n2cnc3c(NC(=O)OCC)nc(F)nc32)C[C@H]1OC(=O)OCC | NL4-3 | gp160 M184V |  | U373-CD4-CXCR4 | luminescence | 15 µM |
| C/C(CC(=O)Nc1ccc(C(N)=O)cc1)=N\NC(=O)COc1ccc2ccccc2c1 | IIIB |  |  | MT-2 | p24 | >10 µM |
| CCc1c(Cc2cccc3ccccc23)nc(SCC2OCCO2)[nH]c1=O | IIIB |  |  | MT-4 | cytopathic effect / MTT | >100 µM |
| CNC(=O)NC[C@H]1O[C@@H](n2cnc3c(NC(=O)Nc4ccccc4)ncnc32)[C@H](O)[C@@H]1CC(=O)O | LAI |  |  | MT-2 | cytopathic effect / neutral red | >98 µM |
| CC(C)C1=C2[C@H]3CC[C@@H]4[C@@]5(C)CC[C@H](OC(=O)[C@H]6C[C@@H](C(=O)O)C6(C)C)C(C)(C)[C@@H]5CC[C@@]4(C)[C@]3(C)CC[C@@]2(CC(=O)NC2(CNC(=O)c3ccc(Cl)cc3)CCC2)CC1=O | 92HT599 |  |  | MT-2 | p24 / ELISA | <1 µM |
| COCCC[C@@]1(C)C(=O)c2c(O)c(=O)c(C(=O)NCc3c(F)cccc3F)cn2C[C@@H]1OC | NL4-3 |  | 0% human serum | MT-4 | GFP | 0.0022 µM |
| COC1CSc2nc(=O)c(C(C)C)c(Cc3ccccc3)n21 | IIIB |  |  | MT-4 | cytopathic effect / MTT | >100 µM |
| CC(C)C1=C2[C@H]3CC[C@@H]4[C@@]5(C)CC[C@H](OC(=O)[C@H]6C[C@@H](C(=O)O)C6(C)C)C(C)(C)[C@@H]5CC[C@@]4(C)[C@]3(C)CC[C@@]2(CC(=O)NCCNC(=O)c2ccc(Cl)cc2)CC1=O | 92HT599 |  |  | MT-2 | p24 / ELISA | <1 µM |
| Nc1nccc2c1ncn2[C@H]1CC[C@@H](CO)O1 | A012 |  |  | PBMC | p24 | 4.8 µM |
| C#C[C@]1(COCOC(=O)OCCCCCCCCCC)O[C@@H](n2cnc3c(N)nc(F)nc32)C[C@@H]1O | NL4-3 | gp160 M184V |  | U373-CD4-CXCR4 | luminescence | 0.0111 µM |

For reference, 6 entries again:

{"compound": "C#C[C@]1(COCOC(=O)OCCCCCCCCCC)O[C@@H](n2cnc3c(N)nc(F)nc32)C[C@@H]1O", "strain": "NL4-3", "mutations": "gp160 M184V", "cells": "U373-CD4-CXCR4", "method": "luminescence", "result": "0.0111 µM"}
{"compound": "Nc1nccc2c1ncn2[C@H]1CC[C@@H](CO)O1", "strain": "A012", "cells": "PBMC", "method": "p24", "result": "4.8 µM"}
{"compound": "CCc1ccc(-c2cn([C@H]3C[C@H]4C(=O)N[C@@H](Cc5c[nH]c6ccccc56)C(=O)N[C@H](C(N)=O)CCCCNC(=O)C[C@H](N)C(=O)N[C@@H](CC(N)=O)C(=O)N[C@@H]([C@@H](C)CC)C(=O)N4C3)nn2)cc1", "strain": "BaL", "cells": "HOS-CD4-CCR5", "method": "luminescence", "result": "1.9 µM"}
{"compound": "CC(C)C1=C2[C@H]3CC[C@@H]4[C@@]5(C)CC[C@H](OC(=O)[C@H]6C[C@@H](C(=O)O)C6(C)C)C(C)(C)[C@@H]5CC[C@@]4(C)[C@]3(C)CC[C@@]2(CC(=O)NCC(C)(C)NC(=O)C2CCNCC2)CC1=O", "strain": "92HT599", "cells": "MT-2", "method": "p24 / ELISA", "result": "<1 µM"}
{"compound": "CN(CC(=O)O)Cc1ccc2c(c1)C[C@H](CN=C(N)N)[C@H]2NC(=O)C(=O)Nc1ccc(Cl)c(F)c1", "strain": "AD8", "cells": "Cf2Th-CD4/CCR5", "method": "luminescence", "result": "15.3 µM"}
{"compound": "C/C(=N\\Nc1nc(-c2ccc(Cl)cc2)cs1)c1ccc(-n2ccnc2)cc1", "strain": "IIIB", "cells": "MT-4", "method": "MTT", "result": ">92.25 µM"}

An empty or dashed field is not shown. ECn is the concentration giving n% inhibition of infection, replication or growth.